PubChem BioAssay AID1224833 – University of Georgia | 2016

Aim: 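Human genes whose knock-down alters rotavirus replication in monkey cells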 (primary screen)
System: monkey MA104 kidney cells
Reagent: siRNA pool against human genes, 50 nM
Time to read-out: 48 h knock-down before infection; read 24 h after infection
Conditions: infection with rotavirus strain RV3 two days after transfection; infectious dose for this stage not given
Detection: 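Rotavirus antigen per well by fluorescent immunoassay, normalised to non-targeting control wells on each plate and given as a standard z-score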
Reading the numbers: z-score vs non-targeting control: higher = more rotavirus replication than with non-targeting control
Call rule: In these data the active calls have z-score vs non-targeting control at about -1 or lower, or at about 1 or higher
Meaning of the calls: active = z-score beyond 1 either way; inactive = z-score within 1 of zero
In all, the deposit lists about 12,000 reagents; below is a random part of them. About 5,600 of all reagents (46%) were called active. 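Active calls cover z-scores past 1 in both directions, so they include lowered as well as raised rotavirus replication.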 Entries without a mark were called inactive.

Against NDUFAF4 (NADH:ubiquinone oxidoreductase complex assembly factor 4) the deposit lists z-score vs non-targeting control -1.41 (active).
For SAP30 (Sin3A associated protein 30) the deposit lists z-score vs non-targeting control -1.11 (active).
Against BTNL3 (butyrophilin like 3), the entry reads z-score vs non-targeting control -2.72 (active).
Against YWHAZ, the values are z-score vs non-targeting control -0.931.
COBLL1 (cordon-bleu WH2 repeat protein like 1) scored z-score vs non-targeting control -0.619.
OR2G6 (olfactory receptor family 2 subfamily G member 6) showed z-score vs non-targeting control 0.668.
With knock-down of ZNF610 (zinc finger protein 610) the results were z-score vs non-targeting control -1.16 (active).
Depletion of GNRH2 (gonadotropin releasing hormone 2) resulted in: z-score vs non-targeting control 1.48 (active).
Silencing of KPNA2 (karyopherin subunit alpha 2) gave: z-score vs non-targeting control -0.952.
Silencing of C19orf18 (chromosome 19 open reading frame 18) resulted in: z-score vs non-targeting control -1.37 (active).
Depletion of LRRTM3 (leucine rich repeat transmembrane neuronal 3) resulted in: z-score vs non-targeting control -1.15 (active).
SDR16C5 (short chain dehydrogenase/reductase family 16C member 5) showed z-score vs non-targeting control 1.04 (active).
Silencing of HDX (highly divergent homeobox) resulted in: z-score vs non-targeting control -0.797.
NCAPH2 (non-SMC condensin II complex subunit H2) showed z-score vs non-targeting control -0.463.
For GRIPAP1 (GRIP1 associated protein 1) the deposit lists z-score vs non-targeting control 0.0852.
For TRMT10C (tRNA methyltransferase 10C, mitochondrial RNase P subunit), the entry reads z-score vs non-targeting control -0.222.
Depletion of HOOK1 (hook microtubule tethering protein 1) came out at: z-score vs non-targeting control -0.903.
Knock-down of MGAM (maltase-glucoamylase) resulted in: z-score vs non-targeting control -1.58 (active).
FAM13A (family with sequence similarity 13 member A) gave z-score vs non-targeting control -0.0567.
After knock-down of USO1 (USO1 vesicle transport factor), the screen gave z-score vs non-targeting control -0.589.
Knock-down of S100A4 (S100 calcium binding protein A4) gave: z-score vs non-targeting control -2.6 (active).
For ZNF300 (zinc finger protein 300) the deposit lists z-score vs non-targeting control -1.28 (active).
Against NET1 (neuroepithelial cell transforming 1), the entry reads z-score vs non-targeting control -0.479.
With knock-down of HNRNPK (heterogeneous nuclear ribonucleoprotein K), the screen gave z-score vs non-targeting control -0.647.
SGSM2 (small G protein signaling modulator 2) scored z-score vs non-targeting control -0.451.
After knock-down of CSGALNACT2 (chondroitin sulfate N-acetylgalactosaminyltransferase 2), the screen gave z-score vs non-targeting control -0.598.
Knock-down of TPM4 (tropomyosin 4) gave: z-score vs non-targeting control -0.919.
GBP5 (guanylate binding protein 5) scored z-score vs non-targeting control -1.81 (active).
Depletion of GPN2 (GPN-loop GTPase 2) resulted in: z-score vs non-targeting control -0.757.
Knock-down of CHI3L2 (chitinase 3 like 2) resulted in: z-score vs non-targeting control -0.971.
For ADAM23 (ADAM metallopeptidase domain 23), the entry reads z-score vs non-targeting control 1.21 (active).
VIM (vimentin) gave z-score vs non-targeting control 0.916.

5 entries from above in another layout.
{"gene": "ZNF610 (zinc finger protein 610)", "z-score vs non-targeting control": "-1.16 (active)"}
{"gene": "GNRH2 (gonadotropin releasing hormone 2)", "z-score vs non-targeting control": "1.48 (active)"}
{"gene": "KPNA2 (karyopherin subunit alpha 2)", "z-score vs non-targeting control": -0.952}
{"gene": "C19orf18 (chromosome 19 open reading frame 18)", "z-score vs non-targeting control": "-1.37 (active)"}
{"gene": "LRRTM3 (leucine rich repeat transmembrane neuronal 3)", "z-score vs non-targeting control": "-1.15 (active)"}
